Patent US5665873

Target: T1, Glucocorticoid receptor C-terminal fragment containing DNA-binding domain (GR) (UniProt P06536)
T1 sequence (looked up, limits assumed): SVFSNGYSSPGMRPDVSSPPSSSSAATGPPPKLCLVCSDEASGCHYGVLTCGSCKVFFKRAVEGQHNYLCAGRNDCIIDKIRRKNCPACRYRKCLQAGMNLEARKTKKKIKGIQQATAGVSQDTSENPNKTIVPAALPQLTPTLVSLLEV
Assay: EMSA
Settings: 0-25 ng protein, 1 ng probe, 25 C 30 min; text says 57 nt oligonucleotide; purified recombinant protein; protein details: described as C-terminal GR (Alroy et al. 1992); label: 32P

“GTTCGCACTTTGTCCTAATAATATATATATTAGGACAAAGTGCGAACG (double strand) [HSV-1 oriL GRE probe (L)]”: binds.

Construct, isoform or probe ends are uncertain for at least one entry. Protein sequences can lack the tags named with them.
